Experimental data: the supplement of paper PMC9931576
Changes are numbered by the printed parent chain. Human monoclonal antibodies against the spike receptor-binding domain (heavy:light variable regions). IC50 against pseudoviruses bearing the spike of naturally observed variants; lower = stronger; >10 µg/ml means not reached at the top dose. No active / inactive call. The stated detection limit is 0.0005 µg/ml; values near or below 0.001 µg/ml lie at the floor of the assay.

B1: BD56-908 (protein)
chain 1: EVQLVESGGGLVQPGRSLRLSCAASGFTFDDYAMHWVRQAPGKGLEWVSGITSNSGTIGYADAVKGRFTISRDNAKHSLYLQMNSLRREDTALYYCAKDARKWLVEGEGYLHYWGQGTLVTVSS
chain 2: QSALTQPASVSGSPGQSITISCTGTSSDVGAYNYVSWYQQHPGNAPEVMIYDVNKRPSGVSNRFSGSKSGNTASLTISGLQAEDETDYYCSSYTTSSTYVFGTGTKVTVL
B2: BD56-910 (protein)
chain 1: EVHLVESGGGLVQPGRSLRLSCAASEFTFDDYAIHWVRQGPGKGLEWVSGITSNGGSIGYSDSVKGRFIISRDNAKNSLYLQMNSLKAEDTALYYCAKDARRWLLEGEGYFDYWGQGTLVIVSS
chain 2: B1 chain 2 with Q1H, S27G, A31V, Y34F, N44K, E47K, V48L, N54S, T86A, T103P
B3: BD56-903 (protein)
chain 1: QVQLVQSGAEVKKPGSSVKVSCKASGGTFSSYSISWVRQAPGQGLEWMGKIIPILGVANYAQNFQGRVTVTADKSTSTAYMELSSLTSEDTAVYYCAKEGGRRDWYFDLWGRGTLVTVSS
chain 2: QSVLTQPPSVSGAPGQRVTISCTGSNSNIGAGYDVHWYQQLPGSAPKLLIYANSNRPSGVPDRFSGSKSGTSGTLAITGLQAEDEADYYCQSYDSSLSDLVFGGGTKLTVL
B4: BD56-905 (protein)
chain 1: QLQLQESGPGLVKPSETLSLTCTVSKGSISSTNYYWGWIRQPPGKGLEWIGHIYYSGATYYNSSLKSRVTISVDTSKNQFSLKLSSVTAADTAVYYCARQSRTFGEIIALDYWGQGTLVTVSS
chain 2: QSALTQPRSVSGSPGQSVTISCTGTSSDVGGYDYVSWYQQHPGKAPKLMIYDVIKRPSRVPDRFSGSKSGNTASLTISGLQAEDEADYYCCSYAGISVIFGGGTKLTVL
B5: BD56-739 (protein)
chain 1: QVTLRESGPALVKPTQTLTLTCTFSGFSLSTSGMCVSWIRQPPGKALEWLALIDWDDDKYYSASLKTRLTISKDTSKNQVVLTMTNMDPVDTATYYCARISSDYGYYFDYWGQGTLVTVSS
chain 2: QSVVTQPPSASGTPGQRVTISCSGSSSNMGSNTVNWYQQLPGTAPKLLIYTNNQRPSGVPDRLSGSKSGTSASLAISGLQSEDEADYYCAAWDDSLNGWVFGGGTKLTVL
B6: BD56-900 (protein)
chain 1: EVQLVESGGDLVQPGRSLRLSCAASGFTFDDYAMHWVRQVPGKGLEWVSGITWNGGIIDYADSVKGRFIISRDNAKNSLYLQMISLRVEDTALYYCAKDLFSDDRRDYHYAMDVWGQGTTVTVSS
chain 2: SYVLIQPPSVSVAPGKTARISCGGRNIDSKSVHWYQQKPGQAPVLVIYYNSDRPSGIPERFSGSNSGNTATLTISRVEAGDEADYFCQVWDSSSDHVMFGGGTKLTVL

Experiments:
Assay in all cases: pseudovirus neutralization IC50; higher = weaker neutralization
[1] = biological target: SARS-CoV-2 Omicron BA.1 spike pseudovirus
Experimental: (§1)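 Single-round VSV luciferase pseudovirus mixed with antibody dilutions for 1 h and put on Huh-7 cells for about a day; IC50 from the dose curve.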

[2] = biological target: SARS-CoV-2 Omicron BA.2 spike pseudovirus
Experimental: as §1

[3] = biological target: SARS-CoV-2 Omicron BA.2.75 spike pseudovirus
Experimental: as §1

[4] = biological target: SARS-CoV-2 Omicron BA.5 spike pseudovirus
Experimental: as §1

[5] = biological target: SARS-CoV-2 Omicron BQ.1.1 spike pseudovirus
Experimental: as §1

[6] = biological target: SARS-CoV-2 Omicron XBB spike pseudovirus
Experimental: as §1

[7] = biological target: SARS-CoV-2 early D614G spike pseudovirus
Experimental: as §1

Row | Binder | pseudovirus neutralization IC50 [1] [µg/mL] | pseudovirus neutralization IC50 [2] [µg/mL] | pseudovirus neutralization IC50 [3] [µg/mL] | pseudovirus neutralization IC50 [4] [µg/mL] | pseudovirus neutralization IC50 [5] [µg/mL] | pseudovirus neutralization IC50 [6] [µg/mL] | pseudovirus neutralization IC50 [7] [µg/mL]
1 | B1 | 0.202 | 0.329 | 0.211 | > 10 | > 10 | 3.67 | 0.156
2 | B2 | 0.0566 | 0.0301 | 0.017 | > 10 | > 10 | > 10 | 0.0373
3 | B3 | 0.362 | 0.371 | 0.701 | > 10 | > 10 | 2.86 | 0.506
4 | B4 | > 10 | > 10 | > 10 | > 10 | > 10 | > 10 | > 10
5 | B5 | > 10 | > 10 | > 10 | > 10 | > 10 | > 10 | > 10
6 | B6 | 0.0176 | 0.0138 | 0.0143 | > 10 | > 10 | 2.22 | 0.0296
